Anti-infective test results gathered from many reports (values: NIAID ChemDB through PubChem).

Common to all: whole-cell or culture tests; organism: Mycobacterium avium complex; read-out: MIC90

A number after MIC or MFC names an inhibition level or a share of isolates. Two numbers with a dash give a range or band. Neighbouring rows are from separate reports.

CN1CCCC1CCN=c1cc2n(-c3ccc(Cl)cc3)c3ccccc3nc-2cc1Nc1ccccc1 ; strain: 10 srtains ; value: 0.83 µg/mL
CO[C@H]1/C=C/O[C@@]2(C)Oc3c(C)c(O)c4c(O)c(c5c(c4c3C2=O)NC2(CCN(CC(C)C)CC2)N=5)=NC(=O)/C(C)=C\C=C\[C@H](C)[C@H](O)[C@@H](C)[C@@H](O)[C@@H](C)[C@H](OC(C)=O)[C@@H]1C ; strain: 230 isolates ; value: 0.4 µg/mL
COc1c(N2CC(C)NC(C)C2)c(F)cc2c(=O)c(C(=O)O)cn(C3CC3)c12 ; strain: 14 strains ; value: 1 µg/mL
CC1COc2c(N3CCN(C)CC3)c(F)cc3c(=O)c(C(=O)O)cn1c23 ; strain: 20 strains ; value: 3.13–6.25 µg/mL
O=C(O)c1cn(C2CC2)c2c(F)c(N3CCN4CCC3C4)c(F)cc2c1=O ; value: 4 µg/mL
CCC(C)N1CCN(c2cc(=O)c3nc4c(oc3c2)c2c(=O)c3c(O)c(C)c5c(c34)=C(O)[C@@](C)(O/C=C/[C@H](OC)[C@@H](C)[C@@H](OC(C)=O)[C@H](C)[C@H](O)[C@H](C)[C@@H](O)[C@@H](C)/C=C/C=C(/C)C(=O)N2)O5)CC1 ; strain: 20 strains ; value: 0.3 µg/mL
NC1CCN(c2c(F)cc3c(=O)c(C(=O)O)cn(C4CC4)c3c2F)C1 ; value: 16 µg/mL
CN1CCN(CCCN=c2cc3n(-c4ccc(Cl)cc4)c4ccccc4nc-3cc2Nc2ccccc2)CC1 ; strain: 10 srtains ; value: 2 µg/mL
CNC1CCN(c2c(F)cc3c(=O)c(C(=O)O)cn(C4CC4)c3c2F)C1 ; value: 8 µg/mL
O=C(O)c1cn(-c2ccc(F)cc2)c2cc(N3CCNCC3)c(F)cc2c1=O ; strain: 14 strains ; value: 8 µg/mL
Clc1ccc(Nc2cc3nc4ccccc4n(-c4ccc(Cl)cc4)c-3cc2=NCCCN2CCCC2)cc1 ; strain: 10 srtains ; value: 1.88 µg/mL
COc1c(N2CCN(C(C)C)CC2)c(F)cc2c(=O)c(C(=O)O)cn(C3CC3)c12 ; strain: 14 strains ; value: 8 µg/mL
NC1CN(c2cc3c(cc2F)c(=O)c(C(=O)O)cn3C2CC2)CC1C1CC1 ; value: 16 µg/mL
CCN1CCN(c2nc3c(cc2F)c(=O)c(C(=O)O)cn3C(C)(C)C)CC1 ; strain: 14 strains ; value: 4 µg/mL
CC1CN(c2c(F)c(N)c3c(=O)c(C(=O)O)cn(C4CC4)c3c2F)CCN1C ; value: 2 µg/mL